PubChem BioAssay AID624099, ICCB-Longwood – 2012
Shown is one part, drawn at random, of about 21,000 reagents. 497 of them (2.4%) count as active. 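Higher z means weaker E2 silencing; only reporter increases were scored, and knock-downs that hurt cell survival may mask genuine repressor factors.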

Screen: 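Host factors E2 relies on to silence an HPV18 LCR reporter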 (primary screen)
System: human C33A cervical carcinoma cells (HPV-negative) stably expressing BPV1 E2 and an HPV18 LCR luciferase reporter
Reagent: siRNA pool against human genes, 40 nM
Time to read-out: 72 h
Detection: 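Per-well luciferase luminescence, z-scored on each plate against the plate mean and SD with control wells left out, then averaged across three replicate plates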
Reading the numbers: mean z-score and z-score: higher = stronger reporter signal, weaker E2 silencing
Active means: 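Mean z ≥ 2 together with z ≥ 2 in two or more of the three replicates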

AS3MT (arsenite methyltransferase): mean z-score = 1.12; z-score, replicate A = 1.16; z-score, replicate B = 1.27; z-score, replicate C = 0.93; Call = inactive
LGALS2 (galectin 2): mean z-score = 1.2; z-score, replicate A = 1.55; z-score, replicate B = 0.95; z-score, replicate C = 1.1; Call = inactive
ARPC5 (actin related protein 2/3 complex subunit 5): mean z-score = 0.68; z-score, replicate A = 0.65; z-score, replicate B = 0.94; z-score, replicate C = 0.45; Call = inactive
RTN2 (reticulon 2): mean z-score = 0.32; z-score, replicate A = -0.13; z-score, replicate B = 0.63; z-score, replicate C = 0.47; Call = inactive
ZNF790 (zinc finger protein 790): mean z-score = -1.04; z-score, replicate A = -1.16; z-score, replicate B = -1.09; z-score, replicate C = -0.87; Call = inactive
APOF (apolipoprotein F): mean z-score = -1.97; z-score, replicate A = -1.83; z-score, replicate B = -2.15; z-score, replicate C = -1.93; Call = inactive
MARCHF11-DT (MARCHF11 divergent transcript): mean z-score = -1.48; z-score, replicate A = -1.56; z-score, replicate B = -1.76; z-score, replicate C = -1.12; Call = inactive
ULK3 (unc-51 like kinase 3): mean z-score = -0.62; z-score, replicate A = -0.89; z-score, replicate B = -0.59; z-score, replicate C = -0.38; Call = inactive
MED13 (mediator complex subunit 13): mean z-score = 1.6; z-score, replicate A = 1.77; z-score, replicate B = 1.42; z-score, replicate C = 1.62; Call = inactive
PIGC (phosphatidylinositol glycan anchor biosynthesis class C): mean z-score = -0.16; z-score, replicate A = -0.36; z-score, replicate B = 0.1; z-score, replicate C = -0.21; Call = inactive
GPR65 (G protein-coupled receptor 65): mean z-score = 0.65; z-score, replicate A = 0.69; z-score, replicate B = 0.97; z-score, replicate C = 0.3; Call = inactive
GARIN5B (golgi associated RAB2 interactor family member 5B): mean z-score = 0.58; z-score, replicate A = 0.85; z-score, replicate B = 0.44; z-score, replicate C = 0.44; Call = inactive
GASAL1 (growth arrest associated lncRNA 1): mean z-score = -0.47; z-score, replicate A = -0.26; z-score, replicate B = -0.35; z-score, replicate C = -0.81; Call = inactive
KRT71 (keratin 71): mean z-score = 0.03; z-score, replicate A = -0.05; z-score, replicate B = 0.44; z-score, replicate C = -0.31; Call = inactive
SCRN2 (secernin 2): mean z-score = -1.86; z-score, replicate A = -1.63; z-score, replicate B = -1.86; z-score, replicate C = -2.1; Call = inactive
HACD4 (3-hydroxyacyl-CoA dehydratase 4): mean z-score = 1.63; z-score, replicate A = 1.93; z-score, replicate B = 1.39; z-score, replicate C = 1.57; Call = inactive
REP15 (RAB15 effector protein): mean z-score = 0.26; z-score, replicate A = 0.21; z-score, replicate B = 0.24; z-score, replicate C = 0.33; Call = inactive
PCNX4 (pecanex 4): mean z-score = 0.41; z-score, replicate A = 0.51; z-score, replicate B = 0.37; z-score, replicate C = 0.35; Call = inactive
PTOV1 (PTOV1 extended AT-hook containing adaptor protein): mean z-score = 1.4; z-score, replicate A = 1.29; z-score, replicate B = 1.42; z-score, replicate C = 1.48; Call = inactive
KRT40 (keratin 40): mean z-score = 0.4; z-score, replicate A = 0.48; z-score, replicate B = 0.3; z-score, replicate C = 0.42; Call = inactive
CRMA (cardiomyocyte maturation associated lncRNA): mean z-score = 0.15; z-score, replicate A = -0.09; z-score, replicate B = 0.24; z-score, replicate C = 0.29; Call = inactive

Records listed so far whose gene name starts with G or g (3):
GPR65 (G protein-coupled receptor 65): mean z-score = 0.65; z-score, replicate A = 0.69; z-score, replicate B = 0.97; z-score, replicate C = 0.3; Call = inactive
GARIN5B (golgi associated RAB2 interactor family member 5B): mean z-score = 0.58; z-score, replicate A = 0.85; z-score, replicate B = 0.44; z-score, replicate C = 0.44; Call = inactive
GASAL1 (growth arrest associated lncRNA 1): mean z-score = -0.47; z-score, replicate A = -0.26; z-score, replicate B = -0.35; z-score, replicate C = -0.81; Call = inactive
